From article PMC9658817, “Design, Synthesis, and Mechanistic Study of 2-Pyridone-Bearing Phenylalanine Derivatives as Novel HIV Capsid Modulators” (Molecules, 2022)

Key:
HIV-1 IIIB = experiment: Anti-HIV-1 activity in MT-4 cells (MTT assay); type: cell-based; settings: selectivity index, ratio of CC50/EC50
Method: (§1) The antiviral activities and cytotoxicities of the target compounds were tested using MT-4 cells infected by HIV-1 IIIB or HIV-2 ROD. […] PF74 was utilized as the control drug in this assay.

HIV-2 ROD = experiment: Anti-HIV-2 activity in MT-4 cells (MTT assay); type: cell-based; settings: selectivity index, ratio of CC50/EC50
Method: as §1

Compound	SI HIV-1 (HIV-1 IIIB)	SI HIV-2 (HIV-2 ROD)
COc1ccc(N(C)C(=O)[C@H](Cc2ccccc2)NC(=O)Cn2ccc(NC(=O)c3ccc(C#N)cc3)cc2=O)cc1 [TD-1j, (S)-4-cyano-N-(1-(2-((1-((4-methoxyphenyl)(methyl)amino)-1-oxo-3-phenylpropan-2-yl)amino)-2-oxoethyl)-2-oxo-1,2-dihydropyridin-4-yl)benzamide]	8.18	7.69
COc1ccc(C(=O)Nc2ccn(CC(=O)N[C@@H](Cc3ccccc3)C(=O)N(C)c3ccc(OC)cc3)c(=O)c2)cc1 [TD-1h, (S)-4-methoxy-N-(1-(2-((1-((4-methoxyphenyl)(methyl)amino)-1-oxo-3-phenylpropan-2-yl)amino)-2-oxoethyl)-2-oxo-1,2-dihydropyridin-4-yl)benzamide]	1.79	4.98
COc1ccc(N(C)C(=O)[C@H](Cc2ccccc2)NC(=O)Cn2ccc(NC(=O)c3ccc(C)cc3)cc2=O)cc1 [TD-1g, (S)-N-(1-(2-((1-((4-methoxyphenyl)(methyl)amino)-1-oxo-3-phenylpropan-2-yl)amino)-2-oxoethyl)-2-oxo-1,2-dihydropyridin-4-yl)-4-methylbenzamide]	2.28	2.85
COc1ccc(N(C)C(=O)[C@H](Cc2ccccc2)NC(=O)Cn2ccc(N)cc2=O)cc1 [TC-2, (S)-2-(2-(4-amino-2-oxopyridin-1(2H)-yl)acetamido)-N-(4-methoxyphenyl)-N-methyl-3-phenylpropanamide]	8.98	13.24
COc1ccc(N(C)C(=O)[C@H](Cc2ccccc2)NC(=O)Cn2ccc(NC(=O)c3ccccc3F)cc2=O)cc1 [TD-1d, (S)-2-fluoro-N-(1-(2-((1-((4-methoxyphenyl)(methyl)amino)-1-oxo-3-phenylpropan-2-yl)amino)-2-oxoethyl)-2-oxo-1,2-dihydropyridin-4-yl)benzamide]	4.55	10.28
COc1ccc(N(C)C(=O)[C@H](Cc2ccccc2)NC(=O)Cn2ccc(NC(=O)c3ccccc3)cc2=O)cc1 [TD-1a, (S)-N-(1-(2-((1-((4-methoxyphenyl)(methyl)amino)-1-oxo-3-phenylpropan-2-yl)amino)-2-oxoethyl)-2-oxo-1,2-dihydropyridin-4-yl)benzamide]	5.15	17.81
COc1ccc(N(C)C(=O)[C@H](Cc2ccccc2)NC(=O)Cn2ccc(NC(=O)c3ccc(F)cc3)cc2=O)cc1 [TD-1b, (S)-4-fluoro-N-(1-(2-((1-((4-methoxyphenyl)(methyl)amino)-1-oxo-3-phenylpropan-2-yl)amino)-2-oxoethyl)-2-oxo-1,2-dihydropyridin-4-yl)benzamide]		2.15
COc1ccc(N(C)C(=O)[C@H](Cc2ccccc2)NC(=O)Cn2ccc(NC(=O)c3cccc(F)c3)cc2=O)cc1 [TD-1c, (S)-3-fluoro-N-(1-(2-((1-((4-methoxyphenyl)(methyl)amino)-1-oxo-3-phenylpropan-2-yl)amino)-2-oxoethyl)-2-oxo-1,2-dihydropyridin-4-yl)benzamide]	3.26	9.36
Cc1[nH]c2ccccc2c1CC(=O)NC(Cc1ccccc1)C(=O)N(C)c1ccccc1 (stereo not shown) [PF74, reference compound]	>271.99	>51.00
COc1ccc(N(C)C(=O)[C@H](Cc2cc(F)cc(F)c2)NC(=O)Cn2ccc(N)cc2=O)cc1 [FTC-2, (S)-2-(2-(4-amino-2-oxopyridin-1(2H)-yl)acetamido)-3-(3,5-difluorophenyl)-N-(4-methoxyphenyl)-N-methylpropanamide]	> 49.57	> 17.08
COC(=O)c1ccc(C(=O)Nc2ccn(CC(=O)N[C@@H](Cc3ccccc3)C(=O)N(C)c3ccc(OC)cc3)c(=O)c2)cc1 [TD-1i, methyl (S)-4-((1-(2-((1-((4-methoxyphenyl)(methyl)amino)-1-oxo-3-phenylpropan-2-yl)amino)-2-oxoethyl)-2-oxo-1,2-dihydropyridin-4-yl)carbamoyl)benzoate]	5.04	6.31
COc1ccc(N(C)C(=O)[C@H](Cc2ccccc2)NC(=O)Cn2ccc(NC(=O)c3ccc(N)cc3)cc2=O)cc1 [TD-1m, (S)-4-amino-N-(1-(2-((1-((4-methoxyphenyl)(methyl)amino)-1-oxo-3-phenylpropan-2-yl)amino)-2-oxoethyl)-2-oxo-1,2-dihydropyridin-4-yl)benzamide]		11.04
